Results of unrelated studies side by side (data: NIAID ChemDB).

Shared fields: cytotoxicity tests; cell line: MT-4; read-out: CC50

Rows are shuffled and stem from different studies.

CCCCCCCCO[C@@H]1O[C@H](COS(=O)(=O)O)[C@@H](OS(=O)(=O)O)[C@H](O[C@@H]2O[C@H](COS(=O)(=O)O)[C@@H](OS(=O)(=O)O)[C@H](O[C@@H]3O[C@H](COS(=O)(=O)O)[C@@H](OS(=O)(=O)O)[C@H](O[C@@H]4O[C@H](COS(=O)(=O)O)[C@@H](OS(=O)(=O)O)[C@H](O[C@@H]5O[C@H](COS(=O)(=O)O)[C@@H](OS(=O)(=O)O)[C@H](OS(=O)(=O)O)[C@H]5OS(=O)(=O)O)[C@H]4OS(=O)(=O)O)[C@H]3OS(=O)(=O)O)[C@H]2OS(=O)(=O)O)[C@H]1OS(=O)(=O)O ; value: >1000 µg/mL
CC(=O)/C=C(\C)OCCCCCCn1c(=O)c(C)cn([C@@H]2O[C@H](CO[Si](C)(C)C(C)(C)C)C3(OS(=O)(=O)C=C3N)[C@H]2O[Si](C)(C)C(C)(C)C)c1=O ; value: 8.8 µM
CCOC(=O)c1[nH]c2ccccc2c1Sc1ccccc1 ; value: 1.4 µM
Cc1cn([C@H]2C[C@@H](OCP(=O)(O)O)CO2)c(=O)[nH]c1=O ; value: >343 µM
C=C(C)[C@@H]1CC[C@]2(C(=O)NCCCCCCCC(=O)N[C@@H](CC(C)C)C(=O)O)CC[C@]3(C)[C@H](CC[C@@H]4[C@@]5(C)CC[C@H](OC(=O)CC(C)(C)C(=O)O)C(C)(C)[C@@H]5CC[C@]43C)[C@@H]12 ; value: >10 µM
CCOC(=O)Oc1nc(=O)n([C@H]2C[C@H](N=[N+]=[N-])[C@@H](COC(=O)[C@]34CCC(C)(C)C[C@H]3C3=CC[C@@H]5[C@@]6(C)CC[C@H](O)C(C)(C)[C@@H]6CC[C@@]5(C)[C@]3(C)CC4)O2)cc1C ; value: 35 µM
Nc1nc2c(ncn2[C@@H]2C=C[C@H](COP(=O)(O)OP(=O)(O)OP(=O)(O)O)C2)c(=O)[nH]1 ; value: >200 µM
CCc1c(Sc2ccccc2)n(COCc2ccc(Cl)cc2)c(=S)[nH]c1=O ; value: 20 µM
CC(C)(C)CCO[C@@H]1O[C@H](COS(=O)(=O)O)[C@@H](OS(=O)(=O)O)[C@H](O[C@@H]2O[C@H](COS(=O)(=O)O)[C@@H](OS(=O)(=O)O)[C@H](O[C@@H]3O[C@H](COS(=O)(=O)O)[C@@H](OS(=O)(=O)O)[C@H](O[C@@H]4O[C@H](COS(=O)(=O)O)[C@@H](OS(=O)(=O)O)[C@H](O[C@@H]5O[C@H](COS(=O)(=O)O)[C@@H](OS(=O)(=O)O)[C@H](OS(=O)(=O)O)[C@H]5OS(=O)(=O)O)[C@H]4OS(=O)(=O)O)[C@H]3OS(=O)(=O)O)[C@H]2OS(=O)(=O)O)[C@H]1OS(=O)(=O)O ; value: >1000 µg/mL
CCCCCCCCCCCCOCCO[C@@H]1O[C@H](COS(=O)(=O)O)[C@H](OS(=O)(=O)O)[C@H](OS(=O)(=O)O)[C@H]1OS(=O)(=O)O ; value: >100 µg/mL
C=C(C)[C@@H]1CC[C@]2(C(=O)N[C@H](CC(C)C)C(=O)O)CC[C@]3(C)[C@H](CC[C@@H]4[C@@]5(C)CC[C@H](OC(=O)CC(C)(C)C(=O)O)C(C)(C)[C@@H]5CC[C@]43C)[C@@H]12 ; value: 8 µM
Cc1cn([C@H]2C[C@H](N=[N+]=[N-])[C@@H](CP(=O)(O)O)O2)c(N)nc1=O ; value: 58.62 µg/mL
CCCCCCCCCCCCCCCCCCCCCCOCCCO[C@@H]1O[C@H](COS(=O)(=O)O)[C@@H](OS(=O)(=O)O)[C@H](OS(=O)(=O)O)[C@H]1OS(=O)(=O)O ; value: >100 µg/mL
CCOC(=O)CSCC(=O)N1CCN(c2c([N+](=O)[O-])nc(CC)n2Cc2ccccc2)CC1 ; value: 10.67 µg/mL
Nc1ccn([C@H]2C=C[C@@H](CO)O2)c(=O)n1 ; value: 30 µM
CCc1nc([N+](=O)[O-])c(N2CCN(C(=O)c3ccc([N+](=O)[O-])cc3)CC2)n1Cc1ccccc1 ; value: 98.23 µg/mL
CCNC(=O)OCCOCn1c(Sc2cccc(C)c2)c(C)c(=O)[nH]c1=O ; value: 171 µM
CCCCCCCCCCO[C@@H]1O[C@H](COS(=O)(=O)O)[C@@H](OS(=O)(=O)O)[C@H](O[C@@H]2O[C@H](COS(=O)(=O)O)[C@@H](OS(=O)(=O)O)[C@H](O[C@@H]3O[C@H](COS(=O)(=O)O)[C@@H](OS(=O)(=O)O)[C@H](O[C@@H]4O[C@H](COS(=O)(=O)O)[C@@H](OS(=O)(=O)O)[C@H](O[C@@H]5O[C@H](COS(=O)(=O)O)[C@@H](OS(=O)(=O)O)[C@H](OS(=O)(=O)O)[C@H]5OS(=O)(=O)O)[C@H]4OS(=O)(=O)O)[C@H]3OS(=O)(=O)O)[C@H]2OS(=O)(=O)O)[C@H]1OS(=O)(=O)O ; value: >1000 µg/mL
Cc1cc(C)cc(Sc2c(C)c(=O)[nH]c(=S)n2COCCO)c1 ; value: 240 µM
CCCCCCCCCCO[C@@H]1O[C@H](COS(=O)(=O)O)[C@@H](OS(=O)(=O)O)[C@H](O[C@@H]2O[C@H](COS(=O)(=O)O)[C@@H](OS(=O)(=O)O)[C@H](O[C@@H]3O[C@H](COS(=O)(=O)O)[C@@H](OS(=O)(=O)O)[C@H](O[C@@H]4O[C@H](COS(=O)(=O)O)[C@@H](OS(=O)(=O)O)[C@H](OS(=O)(=O)O)[C@H]4OS(=O)(=O)O)[C@H]3OS(=O)(=O)O)[C@H]2OS(=O)(=O)O)[C@H]1OS(=O)(=O)O ; value: >1000 µg/mL
COc1cccc2c1nc(-c1ccccc1F)n2Cc1cccc(F)c1F ; value: 15.7 µg/mL
CC(=O)C(CCCCCCCCCn1c(=O)c(C)cn([C@@H]2O[C@H](CO[Si](C)(C)C(C)(C)C)C3(OS(=O)(=O)C=C3N)[C@H]2O[Si](C)(C)C(C)(C)C)c1=O)C(C)=O ; value: 235 µM
C=C(C)[C@@H]1CC[C@]2(C(=O)O)CC[C@]3(C)[C@H](CC[C@@H]4[C@@]5(C)CC[C@H](OC(=O)C(C)(C)CC(=O)O)C(C)(C)[C@@H]5CC[C@]43C)[C@@H]12 ; value: 8 µM
CCCCCCCCCCCCCCCCCC(=O)N[C@@H](CO[C@@H]1O[C@H](COS(=O)(=O)O)[C@H](OS(=O)(=O)O)[C@H](OS(=O)(=O)O)[C@H]1OS(=O)(=O)O)C(=O)NCCCCCCCCCCCCCC ; value: <100 µg/mL
CC(=O)C(CCCCCCCn1c(=O)c(C)cn([C@@H]2O[C@H](CO[Si](C)(C)C(C)(C)C)C3(OS(=O)(=O)C=C3N)[C@H]2O[Si](C)(C)C(C)(C)C)c1=O)C(C)=O ; value: >250 µM
O=c1[nH]c(=O)n([C@H]2C=C(CO)CO2)cc1Cl ; value: >100 µg/mL
Nc1ccn([C@H]2CC[C@@H](CO)O2)c(=O)n1 ; value: 29 µg/mL
CCCCCCCCCCCCCCCCCCCCCCOCCCO[C@@H]1O[C@H](COS(=O)(=O)O)[C@H](OS(=O)(=O)O)[C@H](OS(=O)(=O)O)[C@H]1OS(=O)(=O)O ; value: >100 µg/mL
CCc1c(Sc2ccccc2)n(COCc2ccccc2)c(=S)[nH]c1=O ; value: >10 µM
O=c1ccn(N2C[C@H](CO)[C@H]2CO)c(=O)[nH]1 ; value: >100 µg/mL
O=C(CCN1C(=O)/C(=C/c2cccc(Br)c2)SC1=S)Nc1ccccc1O ; value: 125 µM
C[C@]1(CO)[C@H](Cn2cnc3c(=O)[nH]c(N)nc32)C1(F)F ; value: >100 µM
CCc1nc([N+](=O)[O-])c(N2CCN(C(=O)CSCc3ccccc3)CC2)n1Cc1ccccc1 ; value: 8.14 µg/mL
CCCCCCO[C@@H]1O[C@H](COS(=O)(=O)O)[C@@H](OS(=O)(=O)O)[C@H](O[C@@H]2O[C@H](COS(=O)(=O)O)[C@@H](OS(=O)(=O)O)[C@H](O[C@@H]3O[C@H](COS(=O)(=O)O)[C@@H](OS(=O)(=O)O)[C@H](O[C@@H]4O[C@H](COS(=O)(=O)O)[C@@H](OS(=O)(=O)O)[C@H](O[C@@H]5O[C@H](COS(=O)(=O)O)[C@@H](OS(=O)(=O)O)[C@H](OS(=O)(=O)O)[C@H]5OS(=O)(=O)O)[C@H]4OS(=O)(=O)O)[C@H]3OS(=O)(=O)O)[C@H]2OS(=O)(=O)O)[C@H]1OS(=O)(=O)O ; value: >1000 µg/mL
COC(=O)Cn1c(-c2ccccc2F)nc2c(OC)cccc21 ; value: >60.6 µg/mL
CCCCCCCCCCCCCCCCCCCCCCOCCCO[C@@H]1O[C@H](COS(=O)(=O)O)[C@@H](O[C@@H]2O[C@H](COS(=O)(=O)O)[C@H](OS(=O)(=O)O)[C@H](OS(=O)(=O)O)[C@H]2OS(=O)(=O)O)[C@H](OS(=O)(=O)O)[C@H]1OS(=O)(=O)O ; value: >100 µg/mL
CCc1nc([N+](=O)[O-])c(N2CCN(C(C)=O)CC2)n1Cc1ccccc1 ; value: ≥63.1 µg/mL
C=C(C)[C@@H]1CC[C@]2(C(=O)On3nnc4ccccc43)CC[C@]3(C)[C@H](CC[C@@H]4[C@@]5(C)CC[C@H](OC(=O)C(C)(C)CC(=O)O)C(C)(C)[C@@H]5CC[C@]43C)[C@@H]12 ; value: 2.5 µM
COc1cccc2c1nc(-c1ccccc1F)n2Cc1ccccc1C(F)(F)F ; value: >25 µg/mL
O=C(OC[C@H]1O[C@@H](OC(=O)c2cc(OS(=O)(=O)O)c(OS(=O)(=O)O)c(OS(=O)(=O)O)c2)[C@H](OC(=O)c2cc(OS(=O)(=O)O)c(OS(=O)(=O)O)c(OS(=O)(=O)O)c2)[C@@H](OC(=O)c2cc(OS(=O)(=O)O)c(OS(=O)(=O)O)c(OS(=O)(=O)O)c2)[C@@H]1OC(=O)c1cc(OS(=O)(=O)O)c(OS(=O)(=O)O)c(OS(=O)(=O)O)c1)c1cc(OS(=O)(=O)O)c(OS(=O)(=O)O)c(OS(=O)(=O)O)c1 ; value: 197 µg/mL
C[C@]1(Cn2cnc3c(=O)[nH]c(N)nc32)[C@H](COCP(=O)(O)O)C1(F)F ; value: >100 µM
CC(=O)/C=C(/C)OCCCn1c(=O)c(C)cn([C@@H]2O[C@H](CO[Si](C)(C)C(C)(C)C)C3(OS(=O)(=O)C=C3N)[C@H]2O[Si](C)(C)C(C)(C)C)c1=O ; value: ≥130 µM
C=C(C)[C@@H]1CC[C@]2(C(=O)O)CC[C@]3(C)[C@H](CC[C@@H]4[C@@]5(C)CC[C@H](OC(=O)CC(C)(C)C(=O)O)C(C)(C)[C@@H]5CC[C@]43C)[C@@H]12 ; value: 7.5 µM
COc1cccc2c1nc(-c1ccccc1F)n2Cc1ccc(C#N)cc1 ; value: 25.3 µg/mL
CCc1nc([N+](=O)[O-])c(N2CCN(C(=O)CCc3c[nH]c4ccccc34)CC2)n1Cc1ccccc1 ; value: 19.73 µg/mL
Cc1c(Sc2ccccc2)n(COCCN=[N+]=[N-])c(=O)[nH]c1=O ; value: 169 µM
CCCCO[C@@H]1O[C@H](COS(=O)(=O)O)[C@@H](OS(=O)(=O)O)[C@H](O[C@@H]2O[C@H](COS(=O)(=O)O)[C@@H](OS(=O)(=O)O)[C@H](O[C@@H]3O[C@H](COS(=O)(=O)O)[C@@H](OS(=O)(=O)O)[C@H](O[C@@H]4O[C@H](COS(=O)(=O)O)[C@@H](OS(=O)(=O)O)[C@H](O[C@@H]5O[C@H](COS(=O)(=O)O)[C@@H](OS(=O)(=O)O)[C@H](OS(=O)(=O)O)[C@H]5OS(=O)(=O)O)[C@H]4OS(=O)(=O)O)[C@H]3OS(=O)(=O)O)[C@H]2OS(=O)(=O)O)[C@H]1OS(=O)(=O)O ; value: >1000 µg/mL

A second listing of 3 rows from above:

| smiles | value |
|---|---|
| O=c1ccn(N2C[C@H](CO)[C@H]2CO)c(=O)[nH]1 | >100 µg/mL |
| CCNC(=O)OCCOCn1c(Sc2cccc(C)c2)c(C)c(=O)[nH]c1=O | 171 µM |
| CC(=O)C(CCCCCCCCCn1c(=O)c(C)cn([C@@H]2O[C@H](CO[Si](C)(C)C(C)(C)C)C3(OS(=O)(=O)C=C3N)[C@H]2O[Si](C)(C)C(C)(C)C)c1=O)C(C)=O | 235 µM |

CCn: concentration that lowers growth or viability of the cells by n%.